Compound potency records, mixed from different reports. Data source: NIAID ChemDB in PubChem.

All rows: target-level tests

An empty or dashed field is not shown. a–b is a range or a potency band. Inhibition is in % at the dose shown (toxicity tests: loss of growth or viability). Lines come from different laboratories, so protocols vary. ICn: concentration for n% inhibition.

compound,target,agent,read-out,dose,value
O=C(O)c1ccc2c(c1)nc(-c1ccc3nc(-c4ccccc4)cnc3c1)n2C1CCCCC1,NS5B polymerase,Hepatitis C virus,inhibition,33 µM,74.98%
O=C(O)c1cc2nc(-c3ccc(Oc4ccccc4)cc3)cc(-c3cccc(F)c3)n2n1,RNA-dependent RNA polymerase,Hepatitis C virus,IC50,,>10 µM
CNC(=O)c1c(-c2ccc(Br)cc2)oc2ccc(OC)cc12,Nonstructural protein 5B,Hepatitis C virus,IC50,,≤0.5 µM
O=C(O)c1cc2nc(-c3ccc(OCc4ccccc4)cc3)c(CCCc3ccccc3)c(=O)n2[nH]1,RNA-dependent RNA polymerase,Hepatitis C virus,IC50,,1–10 µM
CCc1ccc(-c2oc3ccc(F)cc3c2C(=O)NC)cc1,Nonstructural protein 5B,Hepatitis C virus,IC50,,≤0.5 µM
COC(=O)c1cc2nc(-c3ccco3)c(C3CCCCC3)c(=O)n2[nH]1,RNA-dependent RNA polymerase,Hepatitis C virus,IC50,,1–10 µM
O=C(Nc1cccc(-c2nc(C(=O)O)c(O)c(=O)[nH]2)c1)c1ccc(Cl)c(Cl)c1,HCV polymerase,Hepatitis C virus,IC50,,<100 µM
COCCNc1nc(Nc2ccc3[nH]ncc3c2)nc(OC)n1,DNA polymerase,Hepatitis B virus,inhibition,0.01 µg/mL,52%
CC(=O)c1ccc(-c2cc(NS(=O)(=O)c3ccccc3C)c(C(=O)O)s2)s1,NS3 ATPase,Hepatitis C virus,IC50,,<5 µM
O=C(NCc1ccccc1C(F)(F)F)Nc1cccc(-c2nc(C(=O)O)c(O)c(=O)[nH]2)c1,HCV polymerase,Hepatitis C virus,IC50,,<100 µM
COc1nc(Nc2ccc3cn[nH]c3c2)nc(NN2CCN(C)CC2)n1,Nonstructural protein 5B,Hepatitis C virus,inhibition,0.1 µg/mL,30%
COCC(=O)N(Cc1ccccc1)c1cc(-c2ccccc2)sc1C(=O)O,NS3 ATPase,Hepatitis C virus,IC50,,<5 µM
O=C(O)c1ccc2c(c1)nc(-c1cc3ccc(-c4ccccc4-c4ccc(Cl)cc4)nc3cc1F)n2C1CCCCC1,NS5B polymerase,Hepatitis C virus,inhibition,33 µM,99.29%
O=C(N[C@@H](Cc1c[nH]c2ccccc12)C(=O)O)c1cnn2c(C3CCCCC3)c(-c3ccc(F)cc3F)cnc12,RNA-dependent RNA polymerase,Hepatitis C virus,IC50,,<1 µM
COc1nc(Nc2ccc3[nH]ncc3c2)nc(NN2CCOCC2)n1,DNA polymerase,Hepatitis B virus,inhibition,0.01 µg/mL,11%
O=C(NCc1cccc(CO)c1)Nc1ccsc1-c1nc(C(=O)O)c(O)c(=O)[nH]1,HCV polymerase,Hepatitis C virus,IC50,,<25 µM
CCOC(=O)C1CCN(c2nc(Nc3ccc4[nH]ncc4c3)nc(OC)n2)CC1,DNA polymerase,Hepatitis B virus,inhibition,1 µg/mL,56%
O=C(O)c1ccc2c(c1)nc(-c1ccc3nc(CCn4cccn4)ccc3c1)n2C1CCCCC1,NS5B polymerase,Hepatitis C virus,inhibition,33 µM,97.35%
CNC(=O)c1c(-c2ccc(F)cc2)oc2cc(N(C)S(C)(=O)=O)c(OCc3ccccc3C(=O)OC)cc12,Nonstructural protein 5B,Hepatitis C virus,IC50,,≤0.5 µM
COC(=O)[C@@H]1CCCN1c1nc(Nc2ccc3cn[nH]c3c2)nc(OC)n1,DNA polymerase,Hepatitis B virus,inhibition,0.01 µg/mL,0%
O=C(O)c1nc(-c2cccc(OCc3ccc(Cl)cc3)c2)[nH]c(=O)c1O,HCV polymerase,Hepatitis C virus,IC50,,<100 µM
COc1nc(Nc2ccc3cn[nH]c3c2)nc(N2CCN(CCO)CC2)n1,DNA polymerase,Hepatitis B virus,inhibition,1 µg/mL,40%
COc1ccc(Br)cc1COC(=O)Nc1ccsc1-c1nc(C(=O)O)c(O)c(=O)[nH]1,HCV polymerase,Hepatitis C virus,IC50,,<25 µM
O=C(O)c1sc(-c2ccccc2)cc1N(C(=O)c1ccc(Cl)cc1Cl)C1CC[C@@H](C(=O)O)C1,NS3 ATPase,Hepatitis C virus,IC50,,<5 µM
C#Cc1cccc(-c2nc(C(=O)O)c(O)c(=O)[nH]2)c1,HCV polymerase,Hepatitis C virus,IC50,,<100 µM
O=C(O)c1cc2nc(-c3ccc(OCc4ccccc4)cc3)c(CCC3CCCCC3)c(=O)n2[nH]1,RNA-dependent RNA polymerase,Hepatitis C virus,IC50,,<1 µM
O=C(O)c1sc(-c2ccccc2)cc1N(C(=O)c1ccc(Cl)cc1Cl)C1CCC(C(=O)O)C1,NS3 ATPase,Hepatitis C virus,IC50,,<5 µM
CNC(=O)c1c(-c2ccc(F)cc2)oc2cc(NS(C)(=O)=O)c(OC(C)C)cc12,Nonstructural protein 5B,Hepatitis C virus,IC50,,≤0.5 µM
NC(=O)CC(NC(=O)c1ccc2c(c1)nc(-c1ccc3nc(-c4ccccc4)cnc3c1)n2C1CCCCC1)C(=O)O,NS5B polymerase,Hepatitis C virus,inhibition,100 µM,97.84%
CNC(=O)c1c(-c2ccc(F)cc2)oc2cc(NC)c(OC(C)C)cc12,Nonstructural protein 5B,Hepatitis C virus,IC50,,≤0.5 µM
CC(C)NC1=NC(NC(C)C)N(CN)C(Nc2ccc3cn[nH]c3c2)=N1,DNA polymerase,Hepatitis B virus,inhibition,0.1 µg/mL,63%
COc1cc(OC)cc(-c2ccc3cc(-c4nc5cc(C(=O)O)ccc5n4C4CCCCC4)ccc3n2)c1,NS5B polymerase,Hepatitis C virus,inhibition,100 µM,101%
COc1nc(Nc2ccc3[nH]ncc3c2)nc(NN2CCN(C)CC2)n1,DNA polymerase,Hepatitis B virus,IC50,,>1 µg/mL
CC(=O)c1ccc(-c2cc(NS(=O)(=O)c3ccc(C)cc3C)c(C(=O)O)s2)s1,NS3 ATPase,Hepatitis C virus,IC50,,<5 µM
COc1nc(NCCCN2CCCC2=O)nc(Nc2ccc3[nH]ncc3c2)n1,DNA polymerase,Hepatitis B virus,inhibition,0.01 µg/mL,7%
COc1ccc(S(=O)(=O)Nc2cc(-c3ccccc3)sc2C(=O)O)c(OC)c1,NS3 ATPase,Hepatitis C virus,IC50,,5–20 µM
O=C(O)c1ccc2c(c1)nc(-c1ccc3nc(-c4cc5cccc(O)c5o4)ccc3c1)n2C1CCCCC1,NS5B polymerase,Hepatitis C virus,inhibition,100 µM,91.45%
Cc1ccccc1CNC(=O)Nc1cccc(-c2nc(C(=O)O)c(O)c(=O)[nH]2)c1,HCV polymerase,Hepatitis C virus,IC50,,<100 µM
CC(C)CC(=O)N(Cc1ccccc1)c1cc(-c2ccccc2)sc1C(=O)O,NS3 ATPase,Hepatitis C virus,IC50,,<5 µM
O=C(Cc1ccccc1Cl)Nc1cscc1-c1nc(C(=O)O)c(O)c(=O)[nH]1,HCV polymerase,Hepatitis C virus,IC50,,<25 µM
CNC(=O)c1c(-c2ccccc2)oc2ccc(C(C)C)cc12,Nonstructural protein 5B,Hepatitis C virus,IC50,,≤0.5 µM
O=C(O)c1sc(-c2ccc([N+](=O)[O-])cc2)cc1NS(=O)(=O)c1ccc(F)cc1F,NS3 ATPase,Hepatitis C virus,IC50,,<5 µM

4 of the rows above, restated:

compound	target	agent	read-out	dose	value
CNC(=O)c1c(-c2ccc(F)cc2)oc2cc(NC)c(OC(C)C)cc12	Nonstructural protein 5B	Hepatitis C virus	IC50		≤0.5 µM
O=C(O)c1cc2nc(-c3ccc(Oc4ccccc4)cc3)cc(-c3cccc(F)c3)n2n1	RNA-dependent RNA polymerase	Hepatitis C virus	IC50		>10 µM
O=C(O)c1sc(-c2ccc([N+](=O)[O-])cc2)cc1NS(=O)(=O)c1ccc(F)cc1F	NS3 ATPase	Hepatitis C virus	IC50		<5 µM
COC(=O)c1cc2nc(-c3ccco3)c(C3CCCCC3)c(=O)n2[nH]1	RNA-dependent RNA polymerase	Hepatitis C virus	IC50		1–10 µM